Measured values from several laboratories, pooled; numbers as filed in NIAID ChemDB.

Common to all: tests in culture

Blank or dashed fields: not listed here.

compound	species	read-out	tested at	strain	cells	result
Nc1nc(=O)n([C@@H]2C=C(CO)[C@@H](O)[C@H]2O)cc1Br	Variola virus	EC50	-	7124	-	>100 µg/mL
Nc1nccc2c1ncn2[C@@H]1C[C@H](CO)[C@@H](O)[C@H]1O	Variola virus	EC50	-	Isolate Bangladesh	VERO	1.2 µg/mL
CC[C@@H](C(C)C)[C@H](O)[C@@H](O)[C@@H](C)[C@H]1CC[C@H]2[C@@H]3CC(=O)[C@@]4(O)C[C@@H](Br)CC[C@]4(C)[C@H]3CC[C@]12C	Junin virus	EC90	-	IV4454	VERO	12.6 µM
COc1ccc(-c2ccc(C(Nc3ccccc3)N3c4ccccc4Sc4cc(O)c(CCn5c(-c6ccccc6)nc(=O)c6ccccc65)cc43)cc2)cc1	Japanese encephalitis virus	EC50	-	P20778	-	62.5 µg/mL
CC(C)(O)c1ccc2c(c1)Sc1ccccc1O2	Poliovirus	inhibition	2 µg/mL	TYPE 3	BSC-1	22%
CC[C@@H](C(C)C)[C@H](O)[C@@H](O)[C@@H](C)[C@H]1CC[C@H]2[C@@H]3CC(=O)[C@H]4C[C@H](O)[C@H](O)C[C@]4(C)[C@H]3CC[C@]12C	Junin virus	EC50	-	IV4454	VERO	6.2 µM
COc1ccc(-c2cc(N3CCCC3)no2)c(O)c1	African swine fever virus	EC50	-	-	VERO	>384 µM
CC(=O)OC(C)c1ccc2c(c1)Sc1ccccc1O2	Poliovirus	inhibition	10 µg/mL	TYPE 3	BSC-1	96%
Nc1ccn(C[C@@H](CO)OCP(=O)(O)O)c(=O)n1	Variola virus	EC50	-	Isolate V72-119	VERO	10 µg/mL
CC[C@@H](C(C)C)[C@H](O)[C@@H](O)[C@@H](C)[C@H]1CC[C@H]2[C@@H]3CC(=O)[C@@]4(O)C[C@H](O)[C@H](O)C[C@]4(C)[C@H]3CC[C@]12C	Junin virus	EC50	-	IV4454	VERO	1.6 µM
O=c1cc(/C=C/c2ccc(O)cc2)c2ccc3occ(-c4ccc(-c5ccccc5)cc4)c3c2o1	Japanese encephalitis virus	EC50	-	-	-	250 µg/mL
COc1ccc(-c2cc(N(C)C)no2)c(O)c1	African swine fever virus	EC50	-	-	VERO	>427 µM
CCOC(=O)c1ccc(OCCCCC(=O)c2ccc(C)s2)cc1	Poliovirus	EC50	-	TYPE 3	VERO	1.33 µM
O=c1cnn([C@@H]2O[C@H](CO)[C@@H](O)[C@H]2O)c(=S)[nH]1	Japanese encephalitis virus	EC50	-	Nakayama	VERO	2.62 µg/mL
C[C@H]1[C@H](O)[C@@H](C)/C=C/C=C/C=C/C=C/C=C/C=C/C=C/[C@H](O[C@@H]2O[C@H](C)[C@@H](O)[C@H](N)[C@@H]2O)C[C@@H]2O[C@](O)(C[C@@H](O)C[C@@H](O)CC[C@H](O)[C@@H](O)C[C@@H](O)CC(=O)O[C@H]1C)C[C@H](O)[C@H]2C(=O)O	Histoplasma capsulatum	MIC	-	7 isolates	-	0.16–2.5 µg/mL
C[C@@H](SC1COC(/C=C/C=C/c2ccc(C#N)cc2F)OC1)[C@](O)(Cn1cncn1)c1ccc(F)cc1F	Histoplasma capsulatum	MIC90	-	50 strains	-	0.06 µg/mL
Cc1cc(CCCCCCCOc2ccc(C3=NCCO3)cc2)on1	Poliovirus	EC50	-	TYPE 1	VERO	2.36 µM
N=c1ncn(Cc2cccc([N+](=O)[O-])c2)c2nc[nH]c12	Vaccinia virus	inhibition	12 µg/mL	-	BSC-1	0%
CC(=O)OC[C@H]1O[C@@H](n2ncc(=O)[nH]c2=S)C(OC(C)=O)C1OC(C)=O	Japanese encephalitis virus	EC50	-	Nakayama	VERO	21.9 µg/mL
CC(=O)c1ccc2c(c1)Cc1ccccc1O2	Poliovirus	inhibition	2 µg/mL	TYPE 3	BSC-1	100%
CC12CCC3C(C[C@H](OS(=O)(=O)O)[C@H]4C[C@@H](OS(=O)(=O)O)CCC34C)C1CCC2C(=O)CO	Junin virus	inhibition	80 µg/mL	IV4454	VERO	10.5%
CCN(CC)c1cc(-c2ccc(O)cc2O)on1	African swine fever virus	EC50	-	-	VERO	>121 µM
CCCn1cnc(=N)c2[nH]cnc21	Vaccinia virus	inhibition	12 µg/mL	-	BSC-1	0%
CC1(C)OC2C(O1)[C@@H](COS(=O)(=O)NC(=O)O[C@H]1O[C@H](COCc3ccccc3)[C@@H](OCc3ccccc3)[C@H](OCc3ccccc3)[C@H]1OCc1ccccc1)O[C@H]2n1ccc(=O)[nH]c1=O	African swine fever virus	EC50	-	-	VERO	0.1 µg/mL
C[C@@]1(O)[C@H](O)[C@@H](COP(=O)(O)OP(=O)(O)OP(=O)(O)O)O[C@H]1n1ccc2c(N)ncnc21	Western equine encephalitis virus	EC50	-	-	VERO	200 µM
CC(=O)OC[C@H]1O[C@@H](n2ncc(=O)[nH]c2=O)[C@H](OC(C)=O)[C@@H]1OC(C)=O	Japanese encephalitis virus	EC50	-	Nakayama	VERO	3.5 µg/mL
Cn1cc(NC(=O)c2cc(NC(=O)CN=C(N)N)cn2C)c(C(=O)NCCC(=N)N)c1	Vaccinia virus	inhibition	75 µg/mL	Noguchi	BSC-1	100%
C#CCOc1cc(OC)ccc1-c1cc(N(CC)CC)no1	African swine fever virus	EC50	-	-	VERO	>40 µM
Cc1ccc(C(=O)CCCCOc2ccc(C3=NC(C)(C)CO3)cc2)s1	Poliovirus	EC50	-	TYPE 2	VERO	18.3 µM
CC(O)c1ccc2c(c1)Sc1cc(C(C)O)ccc1O2	Poliovirus	inhibition	0.4 µg/mL	TYPE 3	BSC-1	21%
O=c1cnn([C@@H]2O[C@H](CO)[C@@H](O)[C@H]2O)c(=O)[nH]1	Japanese encephalitis virus	EC50	-	Nakayama	VERO	0.48 µg/mL
Nc1ccn([C@@H]2C=C(CO)[C@@H](O)[C@H]2O)c(=O)n1	Monkeypox virus	EC50	-	ZAIRE	-	0.1 µg/mL
Cn1c(O)c(N=NC(N)=S)c2ccccc21	Variola virus	EC50	-	Isolate Brazil Garcia	LLC-MK2	44.1 µg/mL
Nc1nccc2c1ncn2[C@@H]1O[C@H](CO)[C@@H](O)[C@H]1O	Newcastle disease virus	inhibition	300 µM	-	Chick embryo cells	43.2%
Cn1cc(NC(=O)c2cc(NC(=O)c3cc(NC(=O)c4cc(NC(=O)c5cc(NC=O)cn5C)cn4C)cn3C)cn2C)cc1C(=O)NCCC(=N)N	Vaccinia virus	inhibition	50 µg/mL	Noguchi	BSC-1	57%
CC(O)c1cccc(Cc2ccccc2)c1	Poliovirus	inhibition	0.4 µg/mL	TYPE 3	BSC-1	22%
CC(=O)OC[C@H]1O[C@@H](n2ncc(=S)[nH]c2=O)C(OC(C)=O)C1OC(C)=O	Japanese encephalitis virus	EC50	-	Nakayama	VERO	23.1 µg/mL
CC[C@@H](C(C)C)[C@@H](O)[C@H](O)[C@@H](C)[C@H]1CC[C@H]2[C@@H]3CC(=O)[C@@]4(O)C[C@@H](OC(C)=O)CC[C@]4(C)[C@H]3CC[C@]12C	Junin virus	EC50	-	IV4454	VERO	2.5 µM
COc1ccc(-c2ccc(C(Nc3ccccc3)N3c4ccccc4Sc4cc(O)c(CCC5(O)C=C(C)c6ccc(O)cc6N5)cc43)cc2)cc1	Japanese encephalitis virus	EC50	-	P20778	-	31.25 µg/mL
CC(=O)N[C@H]1[C@H]([C@H](O)[C@H](O)CO)OC(C(=O)O)=C[C@@H]1N=C(N)N	Influenza A virus	inhibition	0.08 µM	H11N9 A/DK/MEM/546/74	MDCK	90%
O=[N+]([O-])c1ccc2c(c1)c(N=NC(=S)Nc1ccccc1)c(O)n2CN1CCCCC1	Yellow fever virus	EC50	-	-	VERO	>20 µg/mL
N=c1ncn(CC2CCCCC2)c2nc[nH]c12	Vaccinia virus	inhibition	25 µg/mL	-	BSC-1	0%
CC(=O)c1ccc(Oc2ccccc2)cc1	Poliovirus	inhibition	2 µg/mL	TYPE 3	BSC-1	100%
C=CCN1C(=O)C(C)S/C1=N/N=C1\C(=O)Nc2ccc([N+](=O)[O-])cc21	Yellow fever virus	EC50	-	-	VERO	>20 µg/mL
CC12CC[C@H](OS(=O)(=O)O)CC1=CCC1C2CCC2(C)C(C(=O)COS(=O)(=O)O)CCC12	Junin virus	inhibition	80 µg/mL	IV4454	VERO	10.5%
O=C1Nc2ccc([N+](=O)[O-])cc2/C1=N/N=C1/SCC(=O)N1c1ccc(Br)cc1	Yellow fever virus	EC50	-	-	VERO	>20 µg/mL
CC(=O)O[C@H]1CC2=CCC3C(CCC4(C)C(C(CCC=C(C)C)COS(=O)(=O)O)CCC34)C2(C)C[C@@H]1OS(=O)(=O)O	Junin virus	inhibition	80 µg/mL	IV4454	VERO	44.7%
Cc1cccc(Cn2cnc(=N)c3[nH]cnc32)c1	Vaccinia virus	inhibition	12 µg/mL	-	BSC-1	0%
CC(C)=CCCC(CO)C1CCC2C3CC=C4C[C@H](O)[C@@H](O)CC4(C)C3CCC12C	Junin virus	inhibition	80 µg/mL	IV4454	VERO	0%
CCC(=O)c1ccc2c(c1)Sc1ccccc1O2	Poliovirus	inhibition	0.4 µg/mL	TYPE 3	BSC-1	18%
O=C(O)CCNS(=O)(=O)c1ccc2c(c1)Cc1ccccc1-2	Influenza A virus (H2N2)	inhibition	31.7 µg/mL	A2/ADACHI	CEF	0%
Cc1ccc(NC(=S)N=Nc2c(O)n(CN3CCOCC3)c3ccc([N+](=O)[O-])cc23)cc1	Yellow fever virus	EC50	-	-	VERO	3.06 µg/mL
Cc1ccc(C(=O)CCCCCCOc2ccc(C3=NCC(C)O3)cc2)s1	Poliovirus	EC50	-	TYPE 3	VERO	2.62 µM
CC(O)c1ccc2c(c1)S(=O)(=O)c1ccccc1O2	Poliovirus	inhibition	10 µg/mL	TYPE 3	BSC-1	18%
O=[N+]([O-])c1ccc2[nH]c(O)c(N=NC(=S)Nc3ccc(Br)cc3)c2c1	Yellow fever virus	EC50	-	-	VERO	<0.8 µg/mL
N=C(N)c1ncn([C@@H]2O[C@H](CO)[C@@H](O)[C@H]2O)n1	Venezuelan equine encephalitis virus	EC50	-	-	-	>100 µM
Nc1ncnc2c1ncn2[C@@H]1C[C@H](NC=O)[C@@H](O)[C@H]1O	Venezuelan equine encephalitis virus	EC50	-	-	HFF	>100 µg/mL
CC(=O)OC1C(OC(C)=O)[C@@H](COS(=O)(=O)NC(C)C)O[C@H]1n1ccc(=O)[nH]c1=O	African swine fever virus	EC50	-	-	VERO	100 µg/mL

3 of the rows above, restated:

compound | species | read-out | tested at | strain | cells | result
CC[C@@H](C(C)C)[C@@H](O)[C@H](O)[C@@H](C)[C@H]1CC[C@H]2[C@@H]3CC(=O)[C@@]4(O)C[C@@H](OC(C)=O)CC[C@]4(C)[C@H]3CC[C@]12C | Junin virus | EC50 | - | IV4454 | VERO | 2.5 µM
O=C(O)CCNS(=O)(=O)c1ccc2c(c1)Cc1ccccc1-2 | Influenza A virus (H2N2) | inhibition | 31.7 µg/mL | A2/ADACHI | CEF | 0%
CC(=O)c1ccc(Oc2ccccc2)cc1 | Poliovirus | inhibition | 2 µg/mL | TYPE 3 | BSC-1 | 100%

Two numbers with a dash give a range or band. ECn is the concentration giving n% inhibition of infection, replication or growth. A number after MIC or MFC names an inhibition level or a share of isolates. Percent inhibition refers to the dose given; in toxicity tests it is the harm to the cells. Neighbouring rows are from separate reports.